# Reference: patent US10039758B2 (priority 2014, dated 2018)
# Amino acid sequences for entries named in this document (tags omitted). Residues count along the entry.
# UniProt P15917, 34-809 limits assumed: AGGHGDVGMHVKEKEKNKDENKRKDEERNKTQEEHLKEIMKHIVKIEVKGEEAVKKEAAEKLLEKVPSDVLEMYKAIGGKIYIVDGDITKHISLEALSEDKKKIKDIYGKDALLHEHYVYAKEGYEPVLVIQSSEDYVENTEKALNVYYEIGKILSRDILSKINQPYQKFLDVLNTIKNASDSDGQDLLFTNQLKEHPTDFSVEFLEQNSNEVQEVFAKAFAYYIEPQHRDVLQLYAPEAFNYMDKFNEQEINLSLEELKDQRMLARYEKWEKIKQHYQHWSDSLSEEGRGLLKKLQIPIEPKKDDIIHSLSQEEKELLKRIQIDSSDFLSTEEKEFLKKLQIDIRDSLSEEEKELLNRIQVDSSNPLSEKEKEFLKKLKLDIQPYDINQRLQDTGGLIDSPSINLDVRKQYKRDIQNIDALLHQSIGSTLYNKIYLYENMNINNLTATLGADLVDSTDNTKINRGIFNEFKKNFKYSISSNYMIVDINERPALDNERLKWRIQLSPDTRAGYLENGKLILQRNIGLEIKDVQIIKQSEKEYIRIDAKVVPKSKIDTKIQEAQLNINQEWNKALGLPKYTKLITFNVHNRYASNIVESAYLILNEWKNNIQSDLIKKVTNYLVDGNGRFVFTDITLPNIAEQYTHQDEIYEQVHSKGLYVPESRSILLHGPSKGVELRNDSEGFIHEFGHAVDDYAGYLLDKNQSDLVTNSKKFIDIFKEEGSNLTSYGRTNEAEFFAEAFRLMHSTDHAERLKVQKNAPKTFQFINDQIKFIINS
# Biological target: LF (Bacillus anthracis, UniProt P15917)
# Assay type: biochemical
substance,measurement,value
surfen hydrate,proteolytic activity of LF on MAPKK peptide (emission at 523 nm),no emission at 523 nm was observed
